Measured values from several laboratories, pooled; numbers as filed in NIAID ChemDB.

Shared fields: enzyme or target tests

ICn: concentration for n% inhibition. Percent inhibition refers to the dose given; in toxicity tests it is the harm to the cells. Blank or dashed fields: not listed here. Neighbouring rows are from separate reports. Fold resistance: result on the changed form divided by that on wild type.

SMILES	changes	strain or isolate	agent	target	setting	read by	read-out	tested at	value
CC(C)[C@H](NC(=O)OCc1ccccc1)C(=O)N[C@@H](Cc1ccccc1)[C@H](O)[C@H](Cc1ccccc1)NC(=O)[C@@H](NC(=O)OCC1CCCCN1C)C(C)C	-	-	HIV-1	Protease	-	fluorescence	IC50	-	~0.05 µM
CCCCCCCCC[C@@H]1C[C@@H]2CC[C@H]3C(C(=O)OC(C)(C)C)=C(C)NC(=[N+]23)N1	-	NL4-3	HIV-1	Nef	-	ELISA	inhibition	5 µM	102.9%
CC[C@H](C)[C@@H](NC(=O)[C@@H](C[C@H](O)[C@H](CC(C)C)NC(=O)[C@H](Cc1cnc[nH]1)NC(=O)[C@H](Cc1ccccc1)NC(=O)[C@@H]1CCCN1C(=O)[C@@H](N)Cc1cnc[nH]1)C(C)C)C(=O)N[C@@H](Cc1cnc[nH]1)C(=O)O	-	-	HIV-2	Protease	pH 4.7	HPLC	Ki	-	0.035 µM
Cc1c(Sc2ccccc2)n(COCCO)c(=O)[nH]c1=O	RT-Y181I Y188L	-	HIV	Reverse transcriptase	-	-	fold resistance	-	>10
Cc1cc(S(N)(=O)=O)ccc1NC(=O)COc1ccc(Cl)cc1C(=O)c1cc(Cl)cc(C#N)c1	RT-V106A	-	HIV-1	Reverse transcriptase	-	fluorescence	IC50	-	0.004 µM
Cc1ccc2c(c1)n(CCNC(=S)Nc1ccc(Br)cn1)c(=O)c1cccn12	RT-V106A	-	HIV-1	Reverse transcriptase	-	nucleotide incorporation	fold resistance	-	4
O=C(O[C@@H]1Cc2c(O)cc(O)cc2O[C@@H]1c1ccc(O)c(O)c1)c1cc(O)c(O)c(O)c1	-	IIIB	HIV-1	gp120	-	ELISA	inhibition	2 µg/mL	78%
CC(C)[C@H](NC(=O)OCc1ccccn1)C(=O)N[C@@H](Cc1ccccc1)[C@H](O)[C@H](O)[C@H](Cc1ccccc1)NC(=O)[C@@H](NC(=O)OCc1ccccn1)C(C)C	-	-	HIV-1	Protease	-	fluorescence	IC50	-	<0.001 µM
O=C1c2ccncc2C(=O)N1CCNC(=S)Nc1ccc(Br)cn1	RT-Y181I	-	HIV-1	Reverse transcriptase	-	nucleotide incorporation	Ki	-	>5 µM
CC[C@H](C)[C@H](NC(=O)OCc1ccccc1)C(=O)N[C@@H](Cc1ccccc1)C(O)[C@H](Cc1ccccc1)NC(=O)[C@@H](NC(=O)OCc1ccccc1)[C@@H](C)CC	-	-	HIV-1	Protease	-	fluorescence	IC50	-	<0.005 µM
CC(C)=CCOc1cc(NC(=S)c2ccoc2C)ccc1Cl	RT-P140A	-	HIV	Reverse transcriptase	-	nucleotide incorporation / radiometric	IC50	-	0.045 µM
O=c1c2cccn2c2cc(Cl)c(Cl)cc2n1CCNC(=S)Nc1ccc(Br)cn1	RT-V106A	-	HIV-1	Reverse transcriptase	-	nucleotide incorporation	fold resistance	-	1
CO[P@](=O)(c1cc(C)cc(/C=C/C#N)c1)c1c(C(N)=O)[nH]c2ccc(Cl)cc12	Y181C/K103	-	HIV	Reverse transcriptase	-	-	IC50	-	1.614 µM
CCCCCCC[C@H](O)C[C@@H]1CC[C@H]2C(C(=O)O[C@@H](C)CCCCCCC[C@@H]3C[C@@H]4CC[C@@H]5C[C@H](C)NC(=[N+]54)N3)=C(C)NC(N)=[N+]12	-	NL4-3	HIV-1	Nef	-	ELISA	inhibition	5 µM	84.5%
CC(C)[C@H](NC(=O)CCN1CCOCC1)C(=O)N[C@@H](Cc1ccccc1)[C@@H](O)[C@H](O)[C@H](Cc1ccccc1)NC(=O)[C@@H](NC(=O)CCN1CCOCC1)C(C)C	-	-	HIV-1	Protease	-	fluorescence	IC50	-	<0.1 µM
Cc1cn([C@H]2C=C[C@@H](COP(=O)(O)OP(=O)(O)OP(=O)(O)O)O2)c(=O)[nH]c1=O	RT-N137K	-	HIV	Reverse transcriptase	-	nucleotide incorporation / radiometric	IC50	-	3.3 µM
CCCCCCC[C@H](O)C[C@@H]1CC[C@H]2C(C(=O)O[C@H](C)CCCCCCC[C@@H]3C[C@@H]4CC[C@@H]5C[C@H](C)NC(=[N+]54)N3)=C(C)NC(N)=[N+]12	-	NL4-3	HIV-1	Nef	-	ELISA	inhibition	5 µM	86.8%
Oc1cc(O)c2c(c1)O[C@H](c1ccc(O)c(O)c1)[C@@H](O)C2	-	IIIB	HIV-1	gp120	-	ELISA	inhibition	5 µg/mL	24%
CC(C)C(NC(=O)[C@@H](NC(=O)OCc1ccccc1)C(C)C)C(F)(F)C(O)C(CC1CCCCC1)NC(=O)[C@@H](NC(=O)OCc1ccccc1)C(C)C	-	-	HIV-1	Protease	-	fluorescence	IC50	-	<0.0025 µM
C=CCOC(=O)C1=C(CCCCC[C@@H](C)O[Si](C)(C)C(C)(C)C)NC2=[N+]3[C@H](CC[C@@H]13)C[C@H](C)N2	-	NL4-3	HIV-1	Nef	-	ELISA	inhibition	5 µM	95.8%
CC(C)[C@H](NC(=O)c1ccc2ccccc2n1)C(=O)N[C@@H](Cc1ccccc1)[C@H](O)CN1CC[C@@H](OCc2ccncc2)C[C@H]1C(=O)NC(C)(C)C	-	ROD	HIV-2	Protease	-	fluorescence	IC50	-	0.01 µM
CC(C)[C@H](NC(=O)OCc1cccnc1)C(=O)N[C@@H](Cc1ccccc1)[C@@H](O)[C@H](O)[C@H](Cc1ccccc1)NC(=O)[C@@H](NC(=O)OCc1cccnc1)C(C)C	-	-	HIV-1	Protease	-	fluorescence	inhibition	0.001 µM	74%
O=c1cnc2ccccc2n1CCNC(=S)Nc1ccc(Br)cn1	RT-Y188L	-	HIV-1	Reverse transcriptase	-	nucleotide incorporation	fold resistance	-	4
CC[C@H]1C=CCC[C@@]2(C[C@@H]3CC[C@@H]4[C@H](C(=O)OCCCCCC(=O)N(CCC[NH3+])C[C@@H](O)CC[NH3+])[C@]5(CCC[C@@H](C)O5)NC(=[N+]34)N2)O1	-	NL4-3	HIV-1	Nef	-	ELISA	IC50	-	<5 µM
Cc1cc2c(cc1C)n1cccc1c(=O)n2CCNC(=S)Nc1ccc(Br)cn1	RT-L100I	-	HIV-1	Reverse transcriptase	-	nucleotide incorporation	Ki	-	0.16 µM
CC[C@H]1C(=O)Nc2ccc(F)cc2N1C(=O)OC(C)C	RT-P95A	-	HIV	Reverse transcriptase	-	nucleotide incorporation / radiometric	fold resistance	-	1.1
CC(C)[C@H](NC(=O)c1ccc2ccccc2n1)C(=O)N[C@@H](Cc1ccccc1)[C@H](O)CN1CC[C@@H](SCc2cccnc2)C[C@H]1C(=O)NC(C)(C)C	PR-V32I	-	HIV	Protease	-	fluorescence	fold resistance	-	22.9
CC[C@H]1C=CCC[C@@]2(C[C@@H]3CC[C@@H]4[C@H](C(=O)OCCCCCCCCCCC(=O)N(CCC[NH3+])C[C@@H](O)CC[NH3+])[C@]5(CCC[C@@H](C)O5)NC(=[N+]34)N2)O1	-	NL4-3	HIV-1	Nef	-	ELISA	inhibition	5 µM	93.9%
Cc1cccc(C)c1OCC(=O)N[C@@H](Cc1ccccc1)[C@H](O)CN1CC[C@@H](Sc2ccncc2)C[C@H]1C(=O)NC(C)(C)C	PR-V32I M46I A71V I84A	-	HIV	Protease	-	fluorescence	Ki	-	0.02477 µM
Oc1cc(O)c2c(c1)O[C@H](c1ccc(O)c(O)c1)[C@H](O)C2	-	IIIB	HIV-1	gp120	-	ELISA	inhibition	0.5 µg/mL	17%

A second listing of 3 rows from above:

SMILES | changes | strain or isolate | agent | target | setting | read by | read-out | tested at | value
CCCCCCC[C@H](O)C[C@@H]1CC[C@H]2C(C(=O)O[C@@H](C)CCCCCCC[C@@H]3C[C@@H]4CC[C@@H]5C[C@H](C)NC(=[N+]54)N3)=C(C)NC(N)=[N+]12 | - | NL4-3 | HIV-1 | Nef | - | ELISA | inhibition | 5 µM | 84.5%
CC(C)[C@H](NC(=O)c1ccc2ccccc2n1)C(=O)N[C@@H](Cc1ccccc1)[C@H](O)CN1CC[C@@H](OCc2ccncc2)C[C@H]1C(=O)NC(C)(C)C | - | ROD | HIV-2 | Protease | - | fluorescence | IC50 | - | 0.01 µM
Cc1c(Sc2ccccc2)n(COCCO)c(=O)[nH]c1=O | RT-Y181I Y188L | - | HIV | Reverse transcriptase | - | - | fold resistance | - | >10